Values from PubChem BioAssay AID504761 (Drosophila RNAi Screening Center, 2011).

- Assay: 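Genome-wide fly cell screen for genes dengue virus requires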 (primary screen)
- System: D.Mel-2 cells from Drosophila
- Knock-down reagent: long dsRNA against Drosophila genes
- Conditions: infection with dengue virus type 2; dose and infection time not stated
- Measured: 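Per well on two replicate plates, imaging gave the percent of cells positive for viral envelope protein, ranked by infection, and a nuclear count of cells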
- Reading the numbers: infection score: higher = more virus-infected cells; cell count: higher = more cells in the well
- Active means: 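Low infection ranks in the two replicates (chance level up to 0.065) followed by a retest with a 1.5-fold or larger significant decrease, p below 0.05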
- Meaning of the calls: active = confirmed: knock-down lowers infection; inactive = not picked or not confirmed
In all, the deposit lists about 22,000 reagents; shown is an unselected part of those with a known target gene and a result. Over the whole deposit, 116 (0.52%) were called active. 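Calls depend on retest data that are not deposited; infection was ranked per plate without normalising between plates; the unit of the infection score is not given.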 Raw values are not corrected between plates. Reagent sequences are not shown. Not stated in the record: the amount of reagent, the time to read-out.

Patsas [DRSC02975]: infection score, replicate 1 = 13.9; infection score, replicate 2 = 24.2; cell count, replicate 1 = 6289; cell count, replicate 2 = 5897; outcome = inactive
Patsas [DRSC28826]: infection score, replicate 1 = 22.9; infection score, replicate 2 = 12.6; cell count, replicate 1 = 3257; cell count, replicate 2 = 3714; outcome = inactive
RecQ5 (RecQ5 helicase) [DRSC11266]: infection score, replicate 1 = 4.63; infection score, replicate 2 = 5.4; cell count, replicate 1 = 7013; cell count, replicate 2 = 7460; outcome = inactive
CG31344 [DRSC16069]: infection score, replicate 1 = 2.61; infection score, replicate 2 = 25.6; cell count, replicate 1 = 6468; cell count, replicate 2 = 6095; outcome = inactive
CG31344 [DRSC29593]: cell count, replicate 1 = 315; cell count, replicate 2 = 382; outcome = inactive
TAF1C-like [DRSC04073]: infection score, replicate 1 = 5.73; infection score, replicate 2 = 5.47; cell count, replicate 1 = 6737; cell count, replicate 2 = 6378; outcome = inactive

Continued; the last 2 above are carried over.
CG31344 [DRSC29593]: cell count, replicate 1 = 315; cell count, replicate 2 = 382; outcome = inactive
TAF1C-like [DRSC04073]: infection score, replicate 1 = 5.73; infection score, replicate 2 = 5.47; cell count, replicate 1 = 6737; cell count, replicate 2 = 6378; outcome = inactive
mRpL42 (mitochondrial ribosomal protein L42) [DRSC06235]: infection score, replicate 1 = 25.4; infection score, replicate 2 = 17.8; cell count, replicate 1 = 4477; cell count, replicate 2 = 3293; outcome = inactive
gro (groucho) [DRSC16962]: infection score, replicate 1 = 5.07; infection score, replicate 2 = 1.36; cell count, replicate 1 = 6347; cell count, replicate 2 = 6680; outcome = inactive
CG17110 [DRSC15173]: infection score, replicate 1 = 5.86; infection score, replicate 2 = 1.25; cell count, replicate 1 = 7016; cell count, replicate 2 = 6874; outcome = inactive
Atxn7 (Ataxin 7) [DRSC23138]: infection score, replicate 1 = 1.61; infection score, replicate 2 = 6.49; cell count, replicate 1 = 6895; cell count, replicate 2 = 7398; outcome = inactive
ana (anachronism) [DRSC07579]: infection score, replicate 1 = 9.35; infection score, replicate 2 = 2.18; cell count, replicate 1 = 6784; cell count, replicate 2 = 7064; outcome = inactive
ana (anachronism) [DRSC24236]: infection score, replicate 1 = 2.25; infection score, replicate 2 = 4.03; cell count, replicate 1 = 6791; cell count, replicate 2 = 6106; outcome = inactive
